Experiments:
[1] = system: human cell lines (HEK293, THP-1, macrophage, HepG2, Caco-2); experiment: Membrane permeability in human cell lines (total arsenic by ICP-MS); conditions: 100 μM AST, 48 h, Caco2
[2] = system: human erythrocytes; experiment: Permeability and stability in human erythrocytes (RBC and iRBC); conditions: 100 μM AST, 48 h

C[As](=O)(O)CC[C@H](N)C(=O)O [AST, 2-amino-4-(hydroxymethylarsinoyl)butanoate]
total arsenic level in cells, rank among cell types [1]: highest | predominant arsenic species in the culture medium of erythrocytes (stability) [2]: almost exclusively AST | uptake by erythrocytes ([2]; RBC and iRBC (regardless of malaria infection)): took up little AST
